Measured values from several laboratories, pooled; numbers as filed in NIAID ChemDB.

All rows: whole-cell or culture tests; agent: Candida albicans

MIC50, MIC90 and the like: level of inhibition, or share of isolates inhibited.

compound,strain,measure,method,result
C[C@H]1[C@H](O)[C@@H](C)/C=C/C=C/C=C/C=C/C=C/C=C/C=C/[C@H](O[C@@H]2O[C@H](C)[C@@H](O)[C@H](N)[C@@H]2O)C[C@@H]2O[C@](O)(C[C@@H](O)C[C@@H](O)CC[C@H](O)[C@@H](O)C[C@@H](O)CC(=O)O[C@H]1C)C[C@H](O)[C@H]2C(=O)O,ATCC 32354,MIC,-,0.4 µg/mL
C=CCN(CC=C)c1nnc2c(cnc3ccccc32)n1,VM-81,MIC,-,50 µg/mL
CC(C)N=C(N)c1ccc2nc(-c3ccc4c(c3)Cc3cc(-c5nc6ccc(C(N)=NC(C)C)cc6[nH]5)ccc3-4)[nH]c2c1,Isolate CA1548,MIC,-,1.56 µg/mL
Clc1cc(Cl)c2c(c1)CCc1ccccc1C2n1ccnc1,12 isolates,MIC90,-,0.03 µg/mL
CCC(C)CC(C)CCCCCCCCC(=O)N[C@H]1C[C@@H](O)[C@H](NCCN)NC(=O)[C@@H]2[C@@H](O)CCN2C(=O)[C@H]([C@H](O)CCN)NC(=O)[C@H]([C@H](O)[C@@H](O)c2ccc(O)cc2)NC(=O)[C@@H]2C[C@@H](O)CN2C(=O)[C@H]([C@@H](C)O)NC1=O,15 strains,MIC90,-,0.25 µg/mL
O=C1CC(c2ccccc2)N(OCCc2nc3ncccc3[nH]2)C(c2ccccc2)C1,51 (NCIM-C27),MIC,-,100 µg/mL
CCO/N=C(/C(=O)N[C@H]1[C@@H](O)[C@H](n2cnc3c(N)ncnc32)O[C@@H]1C(=O)O)C1N=C(N)SN1,FP633,MIC,-,>100 µg/mL
COc1ccc(C2C(C)C(=O)C(C)C(c3ccc(OC)cc3)N2OCCc2nc3ncccc3[nH]2)cc1,6 (NCIM-C27),MIC,-,12.5 µg/mL
CCC(C)CC(C)CCCCCCCCC(=O)N[C@H]1C[C@@H](O)[C@H](NCCN)NC(=O)[C@@H]2[C@@H](O)CCN2C(=O)[C@H]([C@H](O)CCN)NC(=O)[C@H]([C@H](O)[C@@H](O)c2ccc(O)cc2)NC(=O)[C@@H]2C[C@@H](O)CN2C(=O)[C@H]([C@@H](C)O)NC1=O,W111,MIC,broth dilution,1 µg/mL
COc1ccc(C[C@H](N)C(=O)N[C@H]2[C@@H](O)[C@H](n3cnc4c(N)ncnc43)O[C@@H]2C(=O)NN)cc1,FP633,MIC,-,6.2 µg/mL
Cc1nn(-c2ccccc2)c2c1C(c1cccc([N+](=O)[O-])c1)c1c(nc(=O)[nH]c1N)O2,MTCC 227,MIC,-,1000 µg/mL
CC[N+]([O-])(CC)CCCC(C)=CCC/C(C)=C/CCC=C(C)CC/C=C(\C)CCC[N+]([O-])(CC)CC,S124,MIC,-,200 µg/mL
Clc1nnc2c(cnc3ccccc32)n1,M-3,MIC,-,≤10 µg/mL
COc1ccc(C[C@H](NC(=O)NN)C(=O)N[C@H]2[C@@H](O)[C@H](n3cnc4c(N)ncnc43)O[C@@H]2C(=O)NN)cc1,FP633,MIC,-,>100 µg/mL
CC1C(=O)CC(c2ccc(Cl)cc2)N(OCCc2nc3ncccc3[nH]2)C1c1ccc(Cl)cc1,51 (NCIM-C27),MIC,-,12.5 µg/mL
COc1ccc(C[C@H](N)C(=O)N[C@H]2[C@@H](O)[C@H](n3cnc4c(N(C)C)ncnc43)O[C@@H]2C(=O)O)cc1,FP633,MIC,-,>100 µg/mL
CC1C(=O)CC(c2ccccc2)N(OCCc2nc3ncccc3[nH]2)C1c1ccccc1,NCIM-C27,MIC,-,100 µg/mL
CC(C)CCCC(C)CCCC(C)CCCCC(C)CCCC(C)CCCN(C)C,S9,MIC,-,>200 µg/mL
Nc1ncnc2c1ncn2[C@@H]1O[C@H](C(=O)O)[C@@H](NC(=O)[C@H](N)CSC(c2ccccc2)(c2ccccc2)c2ccccc2)C1O,FP633,MIC,-,>100 µg/mL
CC[N+]([O-])(CC)CCCC(C)=CCC/C(C)=C/CCC=C(C)CC/C=C(\C)CCC=C(C)C,S124,MIC,-,200 µg/mL
CN[C@@H]1[C@H](O[C@@H]2OC[C@@H](O)[C@H](O)[C@H]2O)[C@@H](O)[C@H](O[C@H]2c3cc(C)c(C(=O)N[C@H](C)C(=O)O)c(O)c3-c3c(cc4c(c3O)C(=O)c3cc(OC)cc(O)c3C4=O)[C@@H]2O)O[C@@H]1C,A9540,MIC,-,6.3 µg/mL
N[C@@H](Cc1ccccc1)C(=O)N[C@H]1[C@@H](O)[C@H](n2ccc(=O)[nH]c2=O)O[C@@H]1C(=O)O,FP633,MIC,-,>100 µg/mL
CCN(CC)CCCC(C)=CCC/C(C)=C/CCC=C(C)CC/C=C(\C)CCC=C(C)C,S9,MIC,-,100 µg/mL
Cc1nn(-c2ccccc2)c2c1C(c1cccc(Cl)c1)C(C#N)=C(N)O2,MTCC 227,MIC,-,1000 µg/mL
Nc1ncnc2c1ncn2[C@@H]1O[C@H](C(=O)O)[C@@H](NC(=O)C(N)Cc2cc[nH]c2)[C@H]1O,FP633,MIC,-,100 µg/mL
CC(C)=CCC/C(C)=C/CCC(C)=CCC/C=C(\C)CCC=C(C)CCC[N+](C)(C)C,S124,MIC,-,6.25 µg/mL
Cc1nn(-c2ccccc2)c2c1C(c1ccc(Cl)cc1)C(C#N)=C(N)O2,MTCC 227,MIC,-,1000 µg/mL
Nc1ncnc2c1ncn2[C@@H]1O[C@H](C(=O)O)[C@@H](NC(=O)[C@@H](N)Cc2ccc(OCC(=O)O)cc2)[C@H]1O,FP633,MIC,-,>100 µg/mL

An empty or dashed field is not shown. Rows are shuffled and stem from different studies.